Data taken from patent EP0414894A1 (priority 1989, dated 1990).

Columns and labels:
pig ascarid eggs = test: ovocidal activity on helminthic eggs; details: concentration 2.0 % by mass
Escherichia coli = test: bactericidal activity, disinfection of lawn test objects / suspended culture; type: cell-based; details: concentration 0.2 % by mass
Staphylococcus aureus = test: as above; type: cell-based; details: concentration 0.2 % by mass

| Compound | Death of ascaridal eggs, % after 24 hours (pig ascarid eggs) [%] | Death of ascaridal eggs, % after 48 hours (pig ascarid eggs) [%] | Death of micro-organisms, % E.coli (Escherichia coli) [%] | Death of micro-organisms, % S.aureus (Staphylococcus aureus) [%] |
| --- | --- | --- | --- | --- |
| tris-[D(-)-threo-3-para-nitrophenyl-2-dichloroacetamido-2-hydroxypropoxy] phosphazo-L(+)-threo-1-para-nitroplenyl-1-hydroxy 3-chloroisopropyl | 100.0 | 100.0 | – | – |
| O=[N+]([O-])c1ccc(C(Cl)C(CCl)N=P(Cl)(Cl)Nc2ccccc2)cc1 (stereo not drawn) | 100.0 | 100.0 | – | – |
| O=[N+]([O-])c1ccc(C(O)C(CO)N=P(Cl)(Cl)Oc2ccccc2)cc1 (stereo not drawn) | – | – | 100.0 | 95.0 |
